A mixed list of measured activities; the numbers were collected in NIAID ChemDB.

Common to all: host cell toxicity; read-out: CC50

Neighbouring rows are from separate reports. CCn: concentration that lowers growth or viability of the cells by n%. Blank or dashed fields: not listed here.

smiles	cell line	method	value
Nc1nc2ncn(/C=C3\C(F)C3(CO)CO)c2c(=O)[nH]1	Akata	-	>100 µM
O=C1CC[C@H](O)c2cccc(O)c21	NCI-H187	-	7.29 µg/mL
C=Cc1cn([C@@H]2O[C@H](CO)[C@@H](O)[C@@H]2O)c(=O)[nH]c1=O	HELF	-	>1000 µM
Cc1cn([C@H]2C=C[C@@H](CNC(=O)CC3(C)C[C@@](C)(O)CO3)O2)c(=O)[nH]c1=O	JM	-	>500 µM
O=C1CC[C@H](O)c2cc(O)cc(O)c21	NCI-H187	-	5.55 µg/mL
CCC(Sc1ncnc2c1cnn2CCCCO)C(N)=O	HeLa	-	>400 µg/mL
Cc1ccc(-c2cc(-c3ccccc3)n(-c3ccccc3)n2)c(=O)[nH]1	TZM-bl	MTT	140 µM
CCNc1cn([C@H]2C[C@H](O)[C@@H](CO)O2)c(=O)[nH]c1=O	GMK	-	>400 µg/mL
CC(C)C1=C[C@@H]2[C@H](CC[C@@]2(C)O)[C@@](C)(O)CC1	1A2	XTT	>1050 µM
CO/N=C/c1ccc(OC)c(OCCC2CCN(c3ccc(Cl)nn3)CC2)c1	MRC-5	visual reading	>1 µg/mL
CCOC(=O)CCCCCOc1cccc(CN(C(=O)c2ccc(-c3ccoc3)cc2)C(C)C)c1	RAJI	-	>20 µM
O=C(CNC(=O)c1ccccc1)N[C@@H](Cc1ccccc1)C(=O)N1CCCC1C(=O)Nc1ccccc1	TZM-gfp	-	>50 µM
CCCCCCCOC(=O)Nc1ncnn2c([C@@H]3O[C@H](CO)[C@@H](O)[C@@]3(C)O)ccc12	Caco2	MTS	31 µM
CO/N=C/c1cc(C)c(OCCC2CCN(c3ccc(Cl)nn3)CC2)c(C)c1	MRC-5	visual reading	>1 µg/mL
COP(=O)(c1cc(C)cc(CCC#N)c1)c1c(C(N)=O)[nH]c2ccc(Cl)c(F)c12	U-937	MTS	26.5 µM
COc1ccc(C(O)C(Br)N=[N+]=[N-])cc1OC	RAJI	-	<13.5 µM
CC(C)Nc1nc2cc(Cl)c(Cl)cc2n1[C@H]1O[C@@H](CO)[C@H](O)[C@@H]1O	CBL	neutral red	>98 µM
COc1c(N2CCN(C)C(c3ccccc3)C2)c(F)c([N+](=O)[O-])c2c(=O)c(C(=O)O)cn(C3CC3)c12	Vero mammalian cell line	MTT	126 µM
CC1(C)CCC[C@@]2(C)[C@H]1CC[C@@]1(CO1)[C@@H]2C/C=C1\CCOC1=O	1A2	XTT	315.6 µM
NC(=O)CSc1ncnc2c1cnn2CCCCO	HeLa	-	>400 µg/mL
COc1ccc(-n2nc(-c3ccc(C)[nH]c3=O)cc2-c2ccccc2)cc1	TZM-bl	MTT	325 µM
CCO/N=C/c1ccc(OCC2CCN(c3ccc(Cl)nn3)CC2)cc1	MRC-5	visual reading	>1 µg/mL
COc1cc(O)c2c(=O)c(O)c(-c3ccc(OC)c(O)c3)oc2c1	1A2	XTT	>757 µM
C=CCO/N=C/c1cc(O)cc(OCCC2CCN(c3ccc(Cl)nn3)CC2)c1	MRC-5	visual reading	>1 µg/mL
Cc1ccc(-c2nc3ccccc3n2C(=O)/C=C/c2ccccc2)cc1	8E5	MTT / absorbance	<10 µg/mL
c1cc(NC2CCCCC2)cc(-c2cc3c(-c4ccnc(NC5CCC5)n4)ccc(NC4CCC4)n3n2)c1	VERO 76	-	>40 µM
Clc1ccc(Nc2nnc(NCCc3ccccc3)nn2)cc1	Mammalian cells	-	29 µM
COc1cc(OC)c(-c2oc3ccccc3c(=O)c2O)cc1Br	CHO	MTS / absorbance	25.5 µM
CS(=O)(=O)Nc1cccc(-c2cc3c(-c4ccnc(NC5CCCC5)n4)ccc(NC4CCCC4)n3n2)c1	VERO 76	-	>40 µM
Cc1cn([C@H]2C=C[C@@H](CO)O2)c(=O)[nH]c1=O	JM	-	500 µM
CN(C(=O)[C@H](Cc1ccccc1)NC(=O)CC1NC(=O)NC1=O)c1cccc(Cl)c1	TZM-gfp	XTT	>50 µM
O=C(Nc1nc2ccc(C(F)(F)F)cc2s1)c1cnc(C(F)(F)F)s1	CEM-GXR	flow cytometry	12.1 µM
Cc1ccc(-c2cc(-c3ccccc3)n(-c3ccc(C(C)(C)C)cc3)n2)c(=O)[nH]1	TZM-bl	MTT	333 µM
Cc1cn(CC(=O)N[C@@H](Cc2ccccc2)C(=O)N(C)c2ccc(F)cc2)c(=O)[nH]c1=O	TZM-gfp	XTT	>50 µM
CC(Sc1ncnc2c1cnn2CCCCO)C(N)=O	HeLa	-	>400 µg/mL
Cc1nc2cc(NC(=O)c3ccc(S(=O)(=O)N(C)Cc4ccccc4)cc3)ccc2s1	HepDE19	absorbance	2.57 µM
Fc1ccc(-c2cc3c(-c4ccnc(NC5CCCC5)n4)ccc(NC4CCCC4)n3n2)cc1	VERO 76	-	>160 µM
CCc1c(O)c2c(c(O)c1OC)C(=O)C(OC)CC2	NCI-H187	-	6.81 µg/mL
CN(C(=O)[C@H](Cc1ccccc1)NC(=O)CC1NC(=O)NC1=O)c1ccc(F)cc1	TZM-gfp	XTT	>50 µM
CCO/N=C/c1ccc(OCCC2CCN(c3ccc(OCC(F)(F)F)nn3)CC2)cc1	MRC-5	visual reading	>1 µg/mL
CCCCCCCCCCCCCCCC(=O)Nc1ccn([C@H]2CC[C@@H](COP(=O)(O)O[C@H]3C[C@H](n4cc(C)c(=O)[nH]c4=O)O[C@@H]3CO)O2)c(=O)n1	CEM-X17	XTT	37.7 µM
COc1ccc(-c2cc(C(=O)O)c3ccccc3n2)cc1OC	HEK 293	-	>20 µM
COc1ccc(Br)cc1-c1oc2ccccc2c(=O)c1O	CHO	MTS / absorbance	25.5 µM
C=CCOc1ccc(-c2cc3c(-c4ccnc(NC5CCCC5)n4)ccc(NC4CCCC4)n3n2)cc1	VERO 76	-	>100 µM
O[C@@H]1[C@H](O)[C@H](O)CO[C@H]1n1c(Br)nc2cc(Cl)c(Cl)cc21	SupT1	neutral red	>104 µM
CCCCCOC(=O)Nc1ncnn2c([C@@H]3O[C@H](CO)[C@@H](O)[C@@]3(C)O)ccc12	Caco2	MTS	>100 µM
Cc1ccc(CCNc2nnc(NCC[N+](C)(C)c3ccc(Cl)cc3)nn2)cc1	Mammalian cells	-	>150 µM
COc1ccccc1-c1cc(=O)c2ccccc2o1	CHO	MTS / absorbance	25.5 µM
Cn1cncc1C(=O)c1nccc2c1[nH]c1ccccc12	A-594	-	>5 µg/mL
CC(C)(C)c1ccccc1Sc1c(O)cc(-c2ccc(OCc3cccnc3)cc2)oc1=O	CH-1	-	1.31 µM
O=C(c1c[nH]c2ccccc12)[C@H](O)CO	HL-60	MTT	>40 µg/mL
CC(C)N(Cc1cccc(OCCCCCC(=O)OC(=O)O)c1)C(=O)c1ccc(-c2ccc3ccccc3c2)cc1	RAJI	-	>20 µM
O=C1C[C@H](O)[C@@H](O)c2cccc(O)c21	NCI-H187	-	15.33 µg/mL
CCOC(=O)CCCCCOc1cccc(CN(C(=O)c2ccc(-c3ccc4ccccc4c3)cc2)C(C)C)c1	HEK 293	-	>20 µM
O=C(O)c1cccc(-c2cc3c(-c4ccnc(NC5CCCC5)n4)ccc(NC4CCCC4)n3n2)c1	VERO 76	-	>40 µM
CCO/N=C/c1ccc(OCCC2CCN(c3ccc(OC)nn3)CC2)cc1	MRC-5	visual reading	>1 µg/mL
Cc1cc(C=O)cc(C)c1Oc1cc(Nc2ccc(C#N)cc2)nc2ccccc12	HCC-S102	MTT	74 µM
c1ccc(-c2cccc(-c3cc4c(-c5ccnc(NC6CCCC6)n5)ccc(NC5CCCC5)n4n3)c2)cc1	VERO 76	-	>40 µM
CNC[C@@H](Cc1ccccc1)NC[C@@H](Cc1ccc2ccccc2c1)NCC1(c2ccccc2)CC1	KB cells	-	1.43 µg/mL
CCOC(=O)COc1ccc(-c2cc3c(-c4ccnc(NC5CCCC5)n4)ccc(NC4CCCC4)n3n2)cc1	VERO 76	-	>100 µM
CCOc1ccc(Br)cc1-c1oc2ccccc2c(=O)c1O	CHO	MTS / absorbance	25.5 µM
CCO/N=C/c1ccc(OCCC2CCN(c3ccc(Cl)nn3)CC2)c(OC)c1	MRC-5	visual reading	>1 µg/mL
Cc1ccc(-c2cc(-c3ccccc3)n(-c3ccc(Br)cc3)n2)c(=O)[nH]1	TZM-bl	MTT	728 µM
c1cc(-c2ccc(NC3CCCC3)n3nc(-c4ccc(OCC5CCC5)cc4)cc23)nc(NC2CCCC2)n1	VERO 76	-	>100 µM
CCCCCCCCOC(=O)Nc1ncnn2c([C@@H]3O[C@H](CO)[C@@H](O)[C@@]3(C)O)ccc12	Caco2	MTS	27 µM
C[C@H](O)Cc1cc2c(O[C@H]3O[C@H](CO)[C@@H](O)[C@H]3O)ccc(O)c2c(=O)o1	A-594	MTT	>40 µg/mL

9 of the rows above, restated:

| smiles | cell line | method | value |
|---|---|---|---|
| O=C1CC[C@H](O)c2cc(O)cc(O)c21 | NCI-H187 | - | 5.55 µg/mL |
| CC(C)Nc1nc2cc(Cl)c(Cl)cc2n1[C@H]1O[C@@H](CO)[C@H](O)[C@@H]1O | CBL | neutral red | >98 µM |
| O=C(c1c[nH]c2ccccc12)[C@H](O)CO | HL-60 | MTT | >40 µg/mL |
| CCOC(=O)CCCCCOc1cccc(CN(C(=O)c2ccc(-c3ccoc3)cc2)C(C)C)c1 | RAJI | - | >20 µM |
| CC(C)(C)c1ccccc1Sc1c(O)cc(-c2ccc(OCc3cccnc3)cc2)oc1=O | CH-1 | - | 1.31 µM |
| Cc1ccc(-c2nc3ccccc3n2C(=O)/C=C/c2ccccc2)cc1 | 8E5 | MTT / absorbance | <10 µg/mL |
| CCCCCCCCCCCCCCCC(=O)Nc1ccn([C@H]2CC[C@@H](COP(=O)(O)O[C@H]3C[C@H](n4cc(C)c(=O)[nH]c4=O)O[C@@H]3CO)O2)c(=O)n1 | CEM-X17 | XTT | 37.7 µM |
| O=C1C[C@H](O)[C@@H](O)c2cccc(O)c21 | NCI-H187 | - | 15.33 µg/mL |
| Cc1ccc(CCNc2nnc(NCC[N+](C)(C)c3ccc(Cl)cc3)nn2)cc1 | Mammalian cells | - | >150 µM |